Measured data: PubChem BioAssay AID504761 (Drosophila RNAi Screening Center, 2011)
The screen tested about 22,000 reagents; shown is a random part of those with a known target gene and a result. Of all reagents, 116 (0.52%) got an active call. 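Calls depend on retest data that are not deposited; infection was ranked per plate without normalising between plates; the unit of the infection score is not given.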 Raw values are not corrected between plates. A number with no mark means an inactive call. Reagents against one gene are numbered here. Further read-outs or replicates are left out here. No sequences are given here. The record does not give: the amount of reagent, the time to read-out.

- Purpose: 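Insect host genes that dengue virus relies on to spread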 (primary screen)
- System: D.Mel-2 cells from Drosophila
- Knock-down reagent: long dsRNA against Drosophila genes
- Challenge: infection with dengue virus type 2; dose and infection time not stated
- Detection: 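Cells stained for dengue envelope protein and imaged; percent of infected cells per well on duplicate plates, ranked by infection, with stained nuclei counted for cell number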
- Direction: infection score: higher = more virus-infected cells; cell count: higher = more cells in the well
- Rule for the call: 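Low infection ranks in the two replicates (chance level up to 0.065) followed by a retest with a 1.5-fold or larger significant decrease, p below 0.05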
- Meaning of the calls: active = confirmed: knock-down lowers infection; inactive = not picked or not confirmed

gene knocked down	reagent	infection score, replicate 1	infection score, replicate 2	cell count, replicate 1
CG31272	1	1.22	2.42	6163
neo	1	9.04	3.12	6164
neo	2	6.48	22.3	6497
Cyp9h1	1	7.48	15.3	7069
Cyp9h1	2	2.18	3.9	6248
CG6614	1	7.42	2.8	6062
Obp56e	1	5.02	6.28	5902
Rim2	1	3.15	2.34	6356
Rim2	2	3.74	19.1	6824
Eb1	1	20.5	18.2	6079
Sgs5	1	1.67	3	6600
Cht8	1	7.11	5.23	6185
pch2	1	8.99	19.3	6700
capu	1	5.98	2.77	6374
capu	2	2.99	30.7	6530
GlcAT-P	1	8.62	5.53	6603
GlcAT-P	2	1.67	1.54	6404
Sh3beta	1	7.33	8.25	3002
Sh3beta	2	2.2	12.8	6641
Sh3beta	3	3.66	9.35	6721
CG17660	1	2.22	1.71	6256
Gp93	1	19.9	10.7	5538
Gp93	2	16.4	15	6226
CG42399	1	3.4	1.8	6743
CG42399	2	2.63	2.86	6455
CheB42a	1	3.97	1.46	6078
THADA	1	2.23	2.2	6769
Obp46a	1	18.9	8.2	3585
RpLP0	1	10.3	17	6055
RpLP0	2	5.37	3.94	1042
ctp	1	2.56	11.8	5579
ctp	2	0.59	3.84	6488
CG5805	1	23.8	14.7	5606
CG5805	2	1.08	8.51	6854
CG31689	1	3.25	2.99	6217
CG8745	1	11.9	8.47	7110
CG8745	2	1.74	2.49	6568
CG8745	3	13.8	21.7	7010
Lztr1	1	9.13	9.06	3306
Lztr1	2	5.2	8.53	1327
Lztr1	3	2.62	10.3	6309
CG31954	1	5.91	4.29	6401
CG31954	2	12.3	9.84	6608
Nplp2	1	2.6	3.03	6226
CG17567 (retired record)	1	1.36	5.5	6523
CG17567 (retired record)	2	14.9	26	6641
CG17567 (retired record)	3	2.08	4.79	6447
jhamt	1	16.4	12.4	1546
SmydA-9	1	5.26	5.87	6278
128up	1	8.47	9.24	5428
128up	2	9.55	12.5	5139
BaraC	1	2.01	0.75	5828
CG31161	1	16.2	7.72	5479
CG31161	2	7.37	9.06	6473
kug	1	2.15	3.28	6845
CG13170	1	17.7	15.2	2838
CG13170	2	1.84	9.08	6406
Ir60a	1	2.7	19.7	6666
